A mixed list of measured activities; the numbers were collected in NIAID ChemDB.

Shared fields: whole-cell or culture tests; species: HIV-1

Conditions beyond the fields shown may differ between rows. ECn: concentration that inhibits the pathogen or its effect by n%. Blank or dashed fields: not listed here.

| smiles | read by | changes | endpoint | strain or isolate | cells | value |
|---|---|---|---|---|---|---|
| CNC(=O)c1cc(F)ccc1CNC(=O)c1nc2n(c(=O)c1O)CCN(C)C2(C)C | p24 | - | EC95 | - | MT-4 | <1 µM |
| O=c1[nH]cnc2c1nnn2[C@H]1C=CC[C@@H](CO)C1 | cytopathic effect / XTT | - | EC50 | RF | CEM + CEM-SS | >50 µg/mL |
| O=C(NCc1ccc(F)cc1F)c1cn2ccn(CCCCO)c(=O)c2c(O)c1=O | luciferase | R263K | EC50 | - | HEK 293 | 0.0206 µM |
| Nc1nccc2c1ncn2[C@@H]1O[C@H](CO)[C@@H](O)[C@H]1O | p24 | - | EC95 | - | MT-2 | >20 µM |
| CN(C)S(=O)(=O)N1CCn2c(nc(C(=O)NCc3ccc(F)cc3)c(O)c2=O)C1(C)C | p24 | - | EC50 | - | MT-4 | <1 µM |
| CCc1c(Oc2cc(C)cc(C)c2)n(CC2CC2)c(=O)[nH]c1=O | XTT | - | EC50 | IIIB | MAGI | 0.00022 µM |
| CC(C)CCC[C@@H](C)[C@H]1CC[C@H]2[C@@H]3CC[C@H]4C[C@@H](OP(=O)(O)OCCC=C(c5cc(Cl)c(O)c(C(=O)O)c5)c5cc(Cl)c(O)c(C(=O)O)c5)CC[C@]4(C)[C@H]3CC[C@]12C | cytopathic effect | - | EC50 | RF | CEM + CEM-SS | >40 µM |
| CN(C)CCN1CCn2c(nc(C(=O)NCc3ccc(F)cc3)c(O)c2=O)C1(C)C | p24 | - | EC95 | - | MT-4 | <1 µM |
| C/C=C(\C)C(=O)O[C@@H]1[C@@H](C)[C@]2(O)[C@@H]3C=C(C)C(=O)[C@H]3CC(C=O)=C[C@H]2[C@@H]2C(C)(C)[C@]12OCC(C)C | luciferase | - | EC50 | NL4-3 | MT-2 | 2.56 µM |
| OCCOCc1cc(I)c(F)cc1F | cytopathic effect / MTT | - | EC50 | - | CEM | >500 µg/mL |
| Cc1ccc(C(O)(c2c(C)c(=O)[nH]c(=O)n2COCc2ccccc2)C(C)C)cc1 | MTT | - | EC50 | IIIB | MT-4 | >155 µM |
| Cc1cc(S(N)(=O)=O)ccc1NC(=O)COc1ccc(Cl)cc1C(=O)c1cc(F)cc(C(F)(F)F)c1 | luciferase | RT-Y188C | EC50 | IIIB | HELA MAGI | 0.0004 µM |
| Nc1nc(NC2CC2)c2ncn([C@H]3C=CC[C@@H](CO)C3)c2n1 | cytopathic effect / XTT | - | EC50 | RF | CEM + CEM-SS | >50 µg/mL |
| Cc1c(O)cccc1C(=O)N[C@@H](CC(C)C)C(=O)N(c1ccccc1)N(CCO)C(=O)[C@@H]1CCCN1C(=O)OC(C)(C)C | p24 | - | EC50 | IIIB | MOLT-4 | 26.7 µM |
| O=C(NCc1ccc(F)cc1)c1nc2n(c(=O)c1O)CCN(Cc1ccccc1)C2 | p24 | - | EC50 | - | MT-4 | <50 µM |
| Nc1nc2c(ncn2C2[C@H](CO)[C@H]2CO)c(=O)[nH]1 | - | - | EC50 | - | ATH-8 + ATH8 | >100 µg/mL |
| CCOP(=O)(OCC)C(N[C@@H](Cc1ccccc1)[C@H](O)CN(CC(C)C)S(=O)(=O)c1ccc(OC)cc1)c1ccccc1 | MTT | - | EC50 | ID12 | MT-4 | >13.25 µg/mL |
| Cc1cc(C)cc(C(=O)c2c(C(C)C)c(=O)[nH]c(=O)n2CC2CC=CC2)c1 | XTT | - | EC50 | IIIB | CEM | 0.0004 µM |
| CCOP(=O)(OCC)C(N[C@@H](Cc1ccccc1)[C@H](O)CN(CC(C)C)S(=O)(=O)c1ccc(OC)cc1)c1ccc(C)cc1 | MTT | - | EC50 | ROD | MT-4 | >2.47 µg/mL |
| C=C1[C@H](CO)OC[C@@H]1n1ccc(N)nc1=O | - | - | EC50 | - | - | >100 µM |
| Cc1c(O)cccc1C(=O)N[C@@H](CC(C)C)C(=O)N(c1ccccc1)N(CO)C(=O)[C@@H]1CCCN1C(=O)OC(C)(C)C | p24 | - | EC50 | IIIB | MOLT-4 | 28 µM |
| C[C@H](CCCC(c1cc(Cl)c(O)c(C(=O)O)c1)c1cc(Cl)c(O)c(C(=O)O)c1)[C@H]1CC[C@H]2[C@@H]3CC[C@@H]4CC(F)(F)CC[C@]4(C)[C@H]3CC[C@]12C | cytopathic effect | - | EC50 | RF | CEM + CEM-SS | 24 µM |
| COc1cc(Cl)ccc1CNC[C@H](O)[C@@]12CC[C@]3(C)[C@H](CC[C@@H]4[C@@]5(C)CC[C@H](OC(=O)[C@H]6C[C@@H](C(=O)O)C6(C)C)C(C)(C)[C@@H]5CC[C@]43C)C1=C(C(C)C)C(=O)C2 | p24 / ELISA | - | EC50 | 92HT599 | MT-2 | <1 µM |
| NC[C@@H]1C[C@@H](N)[C@H](n2cnc3c(N)ncnc32)O1 | cytopathic effect / trypan blue | - | EC50 | IIIB | MT-4 | >500 µg/mL |
| CCOP(=O)(OCC)C(N[C@@H](Cc1ccccc1)[C@@H](O)CN(CC(C)C)S(=O)(=O)c1ccc(OC)cc1)c1ccc([N+](=O)[O-])cc1 | MTT | - | EC50 | IIIB | MT-4 | >3.94 µg/mL |
| CCOP(=O)(CO[C@@H]1C=C[C@H](n2cnc3c(Cl)nc(N)nc32)C1(F)F)OCC | cytopathic effect | - | EC50 | - | MT-4 | 90 µM |
| CC(C)CCCC(C)CCN1CCn2cc(C(=O)NCc3ccc(F)cc3F)c(=O)c(O)c2C1=O | luciferase | G118R | EC50 | - | HEK 293 | 0.1027 µM |
| CCNC(=O)[C@@H](NC(=O)Cc1ccccc1)[C@@H]1N[C@@H](C(=O)NC[C@H](O)CN2C[C@H]3CCCC[C@H]3C[C@H]2C(=O)NC(C)(C)C)C(C)(C)S1 | syncytia | - | EC50 | RF | C8166 | 0.74 µM |
| Nc1ncnc2c1nnn2[C@H]1C=CC[C@@H](CO)C1 | cytopathic effect / XTT | - | EC50 | RF | CEM + CEM-SS | >50 µg/mL |
| C=C1[C@H](CO)OC[C@@H]1n1cnc2c(N)ncnc21 | - | - | EC50 | - | - | >100 µM |
| Cc1cc(CNCC[C@@]23CC[C@]4(C)[C@H](CC[C@@H]5[C@@]6(C)CC[C@H](OC(=O)[C@H]7C[C@@H](C(=O)O)C7(C)C)C(C)(C)[C@@H]6CC[C@]54C)C2=C(C(C)C)C(=O)C3)c(C)o1 | p24 / ELISA | - | EC50 | 92HT599 | MT-2 | <1 µM |
| Cc1cc(C)cc(C(=O)c2c(C(C)C)c(=O)[nH]c(=O)n2CC2CC2)c1 | XTT | - | EC50 | IIIB | CEM | 0.0002 µM |
| Cc1c(C(C)(O)c2ccc(Cl)cc2)n(COCc2ccccc2)c(=O)[nH]c1=O | MTT | - | EC50 | IIIB | MT-4 | >89.07 µM |
| Nc1ncnc2c1ncn2[C@@H]1O[C@H](CO)C[C@@H]1N | cytopathic effect / trypan blue | - | EC50 | IIIB | MT-4 | >500 µg/mL |
| CCCCCCCCCCCCCC(=O)OCC/C(SS/C(CCOC(=O)CCCCCCCCCCCCC)=C(\C)N(C=O)Cc1cnc(C)nc1N)=C(/C)N(C=O)Cc1cnc(C)nc1N | p24 | - | EC50 | JRFL(NSI/MT) | PBMC(CXCR4 CCR5) + PBMC | 14.7 µM |
| CC(C)(C)NC(=O)[C@@H]1C[C@@H]2CCCC[C@@H]2CN1C[C@H](O)CNC(=O)[C@@H]1N[C@@H]([C@H](NC(=O)Cc2ccccc2)C(=O)NCc2ccccc2)SC1(C)C | syncytia | - | EC50 | RF | C8166 | 0.05 µM |
| CCc1c(C(=O)c2cc(C)cc(C)c2)n(CC2CC=CC2)c(=O)[nH]c1=O | XTT | - | EC50 | IIIB | CEM | 0.0002 µM |
| CC(C)C1=C2[C@H]3CC[C@@H]4[C@@]5(C)CC[C@H](OC(=O)[C@H]6C[C@@H](C(=O)O)C6(C)C)C(C)(C)[C@@H]5CC[C@@]4(C)[C@]3(C)CC[C@@]2(CC(=O)NCC2(NC(=O)c3ccc(Cl)cc3)CC2)CC1=O | p24 / ELISA | - | EC50 | 92HT599 | MT-2 | <1 µM |
| CCCCC/C=C/C=C1/C(=O)CCC1C/C=C\CCCC(=O)O | ELISA | - | EC50 | - | U-937 | 0.8 µM |
| Nc1nc(N)c2nnn([C@H]3C=CC[C@@H](CO)C3)c2n1 | cytopathic effect / XTT | - | EC50 | RF | CEM + CEM-SS | >50 µg/mL |
| COc1ccc([C@H]2c3c(cc4c(c3OC)OCO4)C[C@@H](C)[C@@H]2C)cc1O | cytopathic effect / MTT | - | EC50 | IIIB | MT-4 | 76.1 µM |
| CC(C)CCC[C@@H](C)[C@H]1CC[C@H]2[C@@H]3C=C[C@H]4C[C@@H](OP(=O)(O)OCCC=C(c5cc(Cl)c(O)c(C(=O)O)c5)c5cc(Cl)c(O)c(C(=O)O)c5)CC[C@]4(C)[C@H]3CC[C@]12C | cytopathic effect | - | EC50 | RF | CEM + CEM-SS | >39 µM |
| COc1cc([C@H]2c3c(cc(OC)c(OC)c3OC)C[C@H]3CSC[C@@H]32)cc(OC)c1OC | - | - | EC50 | IIIB | MT-4 | 1.03 µM |
| O=[N+]([O-])c1cc(COC(CO)CO)c(F)cc1F | cytopathic effect / MTT | - | EC50 | - | CEM | >500 µg/mL |
| CCOP(=O)(N[C@@H](Cc1ccccc1)[C@H](O)CN(CC(C)C)S(=O)(=O)c1ccc(OC)cc1)OCC | MTT | - | EC50 | RES056 | MT-4 | 7.4 µg/mL |
| Cn1ccc(CN2CCn3c(nc(C(=O)NCc4ccc(F)cc4)c(O)c3=O)C23CC3)n1 | p24 | - | EC95 | - | MT-4 | <1 µM |
| Cc1nc(C)c(CNC(=O)C[C@@]23CC[C@]4(C)[C@H](CC[C@@H]5[C@@]6(C)CC[C@H](OC(=O)[C@H]7C[C@@H](C(=O)O)C7(C)C)C(C)(C)[C@@H]6CC[C@]54C)C2=C(C(C)C)C(=O)C3)s1 | p24 / ELISA | - | EC50 | 92HT599 | MT-2 | <1 µM |
| Cc1c(-c2c(C)c3c(c(C)c2C(OC(C)(C)C)C(=O)O)CN(C(=O)c2cccc(F)c2)C3)ccc2c1NCCO2 | luciferase | - | EC50 | IIIB | MT-4 | 0.036 µM |
| CCOP(=O)(OCC)C(N[C@@H](Cc1ccccc1)[C@H](O)CN(CC(C)C)S(=O)(=O)c1ccc(OC)cc1)c1ccc([N+](=O)[O-])cc1 | MTT | - | EC50 | ROD | MT-4 | >14.24 µg/mL |
| OC[C@@H]1CC=C[C@H](n2cnc3c(Cl)ncnc32)C1 | cytopathic effect / XTT | - | EC50 | RF | CEM + CEM-SS | >50 µg/mL |
| Cc1c(O)cccc1C(=O)N[C@@H](CC(C)C)C(=O)N(Cc1ccccc1)N(CCO)C(=O)[C@@H]1CCCN1C(=O)OC(C)(C)C | p24 | - | EC50 | IIIB | MOLT-4 | 0.3 µM |
| Cc1c(-c2c(C)c3c(c(C)c2[C@H](OC(C)(C)C)C(=O)O)CN(C(=O)CC(C)(C)C)C3)cc(F)c2c1CCCO2 | luciferase | - | EC50 | IIIB | MT-4 | 0.036 µM |
| O=C(NCc1ccc(F)cc1F)c1cn2cc[nH]c(=O)c2c(O)c1=O | luciferase | S230N | EC50 | - | HEK 293 | 0.0845 µM |
| Cc1cc(COCCO)c(F)cc1F | cytopathic effect / MTT | - | EC50 | - | CEM | >500 µg/mL |
| CC(C)CCC[C@@H](C)[C@H]1CC[C@H]2[C@@H]3CC[C@H]4C[C@@H](CCC=C(c5cc(Cl)c(O)c(C(=O)O)c5)c5cc(Cl)c(O)c(C(=O)O)c5)CC[C@]4(C)[C@H]3CC[C@]12C | cytopathic effect | - | EC50 | RF | CEM + CEM-SS | 3 µM |
| CC(C)n1ccn2cc(C(=O)NCc3ccc(F)cc3F)c(=O)c(O)c2c1=O | luciferase | E138K/Q148K | EC50 | - | HEK 293 | 0.0651 µM |
| CC1(C)c2nc(C(=O)NCc3ccc(F)cc3)c(O)c(=O)n2CCN1CC(=O)N1CCCC1 | p24 | - | EC95 | - | MT-4 | <1 µM |
| COC(Cn1ccn2cc(C(=O)NCc3ccc(F)cc3F)c(=O)c(O)c2c1=O)OC | luciferase | G118R | EC50 | - | HEK 293 | 0.1031 µM |
| CC(C)C1=C2[C@H]3CC[C@@H]4[C@@]5(C)CC[C@H](OC(=O)[C@H]6C[C@@H](C(=O)O)C6(C)C)C(C)(C)[C@@H]5CC[C@@]4(C)[C@]3(C)CC[C@@]2(CC(=O)NCC(C)(C)NC(=O)c2ccc(Cl)c(Cl)c2)CC1=O | p24 / ELISA | - | EC50 | 92HT599 | MT-2 | <1 µM |
| c1ccc(COCC2OC(OC3C4COC(O4)C(OCc4ccccc4)C3OCc3ccccc3)C(OCc3ccccc3)C(OCc3ccccc3)C2OCc2ccccc2)cc1 | MTT | - | EC50 | - | MT-4 | 0.23 µg/mL |
| NC[C@H]1O[C@@H](n2cnc3c(N)ncnc32)C[C@H]1O | cytopathic effect / trypan blue | - | EC50 | IIIB | MT-4 | >500 µg/mL |
| CCCCCCCNC(=O)[C@@H](NC(=O)Cc1ccccc1)[C@@H]1N[C@@H](C(=O)NCC(O)CN2C[C@H]3CCCC[C@H]3C[C@H]2C(=O)NC(C)(C)C)C(C)(C)S1 | cytopathic effect / MTT | - | EC50 | RF | MT-4 | >100 µM |
| NC[C@@H]1C[C@H](O)[C@H](n2cnc3c(N)ncnc32)O1 | cytopathic effect / trypan blue | - | EC50 | IIIB | MT-4 | >500 µg/mL |
| Nc1ncnc2c1ncn2NC(=O)COCP(=O)(O)O | - | - | EC50 | - | - | >10 µM |
| OCC(CO)OCc1ccc(F)cc1F | cytopathic effect / MTT | - | EC50 | - | CEM | >500 µg/mL |
| CC(C)c1c(C(C)c2ccc(F)cc2)n(COCc2ccccc2)c(=O)[nH]c1=O | MTT | L100I | EC50 | IIIB | MT-4 | 8.35 µM |
| CC(C)C1=C2[C@H]3CC[C@@H]4[C@@]5(C)CC[C@H](OC(=O)[C@H]6C[C@@H](C(=O)O)C6(C)C)C(C)(C)[C@@H]5CC[C@@]4(C)[C@]3(C)CC[C@@]2([C@@H](O)CNC(=O)[C@@H]2CCCN2)CC1=O | p24 / ELISA | - | EC50 | 92HT599 | MT-2 | <1 µM |
| COc1c2c(cc3c1[C@H](c1ccc(O)c(Oc4ccccc4)c1)[C@H]1C(=O)OC[C@@H]1C3)OCO2 | p24 | - | EC50 | IIIB | H9 | 2.38 µM |
| O=C(NCc1ccc(F)cc1F)c1cn2c(c(O)c1=O)C(=O)NCC2 | luciferase | S230N | EC50 | - | HEK 293 | 0.1033 µM |
| Cn1cc(C(=O)O)c(=O)c2cc(F)c(N3CC=C(c4ccccc4)CC3)c(C(F)(F)F)c21 | ELISA | - | EC50 | - | OM-10.1 | 33 µM |